This is a selection; strong and weak results do not stand in their true shares. Inconclusive results are not listed. For part of these data: Measured potencies and affinities stand elsewhere. Activity calls are given as the source filed them.
Key:
[1] = Ebola virus entry assay, green channel fluorescence
[2] = Ebola virus entry assay, reporter ratio channel; Channel type: primary
[3] = Ebola virus entry assay, blue channel (ratio component)
[4] = qHTS assay for measurement of the activity of small molecule inhibitors on Zika virus induced Caspase-3 activity in human iPSC derived neural progenitor cells (hNPCs) (AID 1224857); conditions: hNPCs ZIKV-induced caspase-3/7, Caspase-Glo luminescence, 6 h; at 45.7 µM (top of the series) unless noted; further: % of control where 0% means no effect; nearly all actives have a fitted effect of over 65% in size
[5] = qHTS assay for measurement of the activity of small molecule inhibitors on Zika virus induced Caspase-3 activity in human astrocytoma cells (AID 1224859); conditions: SNB-19 ZIKV-induced caspase-3/7, luminescence, 6 h; at 45.7 µM (top of the series) unless noted;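 further: plate controls were ZIKV-infected untreated cells for no effect and uninfected cells for full effect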
[6] = NS1 protein of Zika virus - qHTS assay to identify small molecule inhibitors in human HEK 293 cells (AID 1347053); conditions: HEK293 ZIKV MR766 infection, NS1 TR-FRET, 24 h; at 46.1 µM (top of the series) unless noted;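 further: plate controls were infected untreated cells for no effect and uninfected cells for full effect; nearly all actives have a fitted effect of over 55% in size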
[7] = qHTS for Inhibitors of the Functional Ribonucleoprotein Complex (vRNP) of Lassa (LASV) Arenavirus: LASV Primary Screen - GLuc reporter signal (AID 1347082; calls by dose curve; tested in HEK293 reporter line; further: on the % scale 0 is the no-effect control and ±100 the full control effect; nearly all actives have a fitted effect of over 60% in size); conditions: LASV minigenome vRNP, Gaussia luciferase reporter; at 57.5 µM (top of the series) unless noted
[8] = qHTS for Inhibitors of the Functional Ribonucleoprotein Complex (vRNP) of Lassa (LASV) Arenavirus: Viability assay - alamar blue signal for LASV Primary Screen (AID 1347083; calls by dose curve; tested in HEK293 reporter line; further: on the % scale 0 is the no-effect control and ±100 the full control effect; nearly all actives have a fitted effect of over 80% in size); conditions: cell viability, alamar blue fluorescence (LASV minigenome counter-screen); at 57.5 µM (top of the series) unless noted
[9] = qHTS for Inhibitors of the Functional Ribonucleoprotein Complex (vRNP) of Lymphocytic Choriomeningitis Arenaviruses (LCMV): Viability assay - alamar blue signal for LCMV Primary Screen (AID 1347085; calls by dose curve; tested in HEK293 reporter line; further: on the % scale 0 is the no-effect control and ±100 the full control effect; nearly all actives have a fitted effect of over 80% in size); conditions: alamar blue viability counter-screen, LCMV vRNP screen cells; at 57.5 µM (top of the series) unless noted
[10] = biological target: Nucleoprotein (Lymphocytic choriomeningitis virus (strain Armstrong)) (UniProt P09992); assay: qHTS for Inhibitors of the Functional Ribonucleoprotein Complex (vRNP) of Lymphocytic Choriomeningitis Arenaviruses (LCMV): LCMV Primary Screen - GLuc reporter signal (AID 1347086; calls by dose curve; further: on the % scale 0 is the no-effect control and ±100 the full control effect; nearly all actives have a fitted effect of over 70% in size); conditions: LCMV minigenome vRNP cell assay, Gaussia luciferase reporter; at 57.5 µM (top of the series) unless noted
[11] = test system: Zika virus NS2B-NS3 protease; assay: Primary screen GU AMC qHTS for Zika virus inhibitors (AID 1347154); conditions: Zika NS2B-NS3 unlinked protease, AMC fluorogenic substrate; at 54.1 µM (top of the series) unless noted;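 further: 0% = no-inhibitor control and -100% = no-enzyme control; nearly all actives have a fitted effect of over 70% in size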
[12] = Primary qHTS for inhibitors of MERS-S pseudo-typed particle cell entry (AID 1479149; calls by dose curve; further: nearly all actives have a fitted effect of over 60% in size); conditions: MERS-S pseudotyped particle entry, luciferase; at 57.1 µM (top of the series)
[13] = Primary qHTS for Vero E6 cytotoxicity: counterscreen for inhibitors of SARS-S pseudo-typed particle cell entry (AID 1479150; calls by dose curve); conditions: cell viability; at 57.1 µM (top of the series)
[14] = Primary qHTS for inhibitors of La Crosse Virus (LACV) - induced cell death in SH-SY5Y cells (AID 1508616); conditions: SH-SY5Y LACV cytopathicity rescue, ATP luminescence, 6 d; at 9.63 µM (top of the series) unless noted;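 further: top concentration of the series differs between compounds; 0% = infected DMSO wells and 100% = uninfected DMSO wells; higher means more rescue of cells from virus-induced death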
Method in brief: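 Rescue of virus-induced death was read as ATPLite luminescence after 6 days at 37C, scaled between DMSO wells with LACV and without virus. Cells were SH-SY5Y, 6000/well, infected at 0.01 MOI after compound addition.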

[15] = Cytotoxicity counterscreen for inhibitors of SARS-CoV-2 cell entry (AID 1645845; calls by dose curve; further: on the % scale 0 is the no-effect control and ±100 the full control effect; nearly all actives have a fitted effect of over 50% in size); conditions: cell viability (SARS-CoV-2 entry assay cells); at 57.1 µM (top of the series)
[16] = biological target: Endonuclease 4 (Escherichia coli (strain K12)) (UniProt P0A6C1); assay: Counterscreen for APE1 Inhibitors: qHTS Validation Assay for Inhibitors of Endonuclease IV (AID 1708); further: on the % scale 0 is the no-effect control and ±100 the full control effect; conditions: E. coli endonuclease IV, DNA cleavage fluorescence; at 57.1 µM (top of the series)
Method in brief: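 Incision of a double-stranded 50 nM TAMRA/BHQ-2 abasic substrate was followed kinetically (525/598 nm, reads every 60 s) after 15 min enzyme–compound preincubation with 2 nM EndoIV in pH 7.5 Tris buffer with MgCl2, DTT and Tween-20; concentration-response format.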

[17] = biological target: DNA polymerase III PolC-type (Bacillus subtilis (strain 168)) (UniProt P13267); assay: qHTS Validation Assay for the Inhibitors of DNA Replication in Gram-Positive Bacteria (AID 485295); conditions: Gram-positive bacterial DNA replication assay; at 57.1 µM (top of the series);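 further: PicoGreen fluorescence of double-stranded DNA made on primed circular M13 template; 0% = DMSO wells and -100% = EDTA-quenched background wells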
Method in brief: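 Reconstituted B. subtilis holoenzyme (Pol III, beta clamp, SSB, primase) was preincubated with compound at room temperature, then given single-stranded circular M13Gori plus dNTPs and NTPs. EDTA-containing PicoGreen stopped the reaction, and dsDNA product was read by fluorescence.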

[18] = biological target: Tumor susceptibility gene 101 protein (Homo sapiens) (UniProt Q99816); assay: qHTS Validation Assay for Iinhibitors of HIV-1 Budding by Blocking the Interaction of PTAP/TSG101 (AID 485342; calls by dose curve; further: 0% is about no effect); conditions: TSG101-PTAP binding, fluorescence polarization, 4-point titration; at 115 µM (top of the series)
Method in brief: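 Tsg101 binding domain (10 uM final) in pH 7.5 HEPES/NaCl/Tween 20/EDTA/TCEP buffer was mixed with pin-transferred compounds, then FITC-labeled PTAP peptide (50 nM final) was added; after 20 min at r.t., fluorescence polarization was read.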

[19] = biological target: Phosphoglycerate kinase, glycosomal (Trypanosoma brucei brucei) (UniProt P07378); assay: qHTS Validation Assay to Find Inhibitors of Phosphoglycerate Kinase (AID 504547); conditions: enzymatic PGK inhibition, coupled luminescence read-out; at 57.5 µM (top of the series);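 further: control wells lack PGK and mark full inhibition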
Method in brief: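 Luminescence end-point (Kinase-Glo Plus, 10 min) after a 60 min room-temperature coupled reaction. GAPDH at 100nM final supplies 1,3-BPG to PGK. Buffer: 100mM TEA pH 7.6, 5mM MgCl2, 0.01% Tween-20. Wells lacking PGK served as controls.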

[20] = qHTS of Trypanosoma Brucei Inhibitors: LOPAC Validation (AID 624147); conditions: Trypanosoma brucei growth inhibition; at 57.5 µM (top of the series); further: 0% is about no effect
Method in brief: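 Luminescent Kinase-Glo Plus end-point after 45 min room-temperature reaction of T. brucei pyruvate kinase started with 130 uM ADP (final). Buffer TEA 50 mM pH 7.2 with KCl, MgCl2, BSA, Tween-20; titration-based qHTS with fitted concentration-effect curves.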

[21] = test system: Zika virus NS2B-NS3 protease (unlinked); assay: Optimization of GU AMC qHTS for Zika virus inhibitors: Unlinked NS2B-NS3 protease assay (AID 1347151); conditions: recombinant ZIKV NS2B-NS3 protease, fluorogenic AMC substrate; at 52.5 µM (top of the series);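 further: 0% = no-inhibitor control and -100% = no-enzyme control; nearly all actives have a fitted effect of over 80% in size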
Method in brief: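 Noncovalent complex of NS2B hydrophilic domain and NS3 protease domain, 25 nM final, in 10 mM Tris-HCl pH 8.0, 0.01% Tween 20. AMC fluorescence change over 15 min at room temperature was fitted to a 4-parameter Hill equation.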

[22] = test system: Zika virus NS2B-NS3 protease (unlinked complex); assay: Primary screen GU Rhodamine qHTS for Zika virus inhibitors: Unlinked NS2B-NS3 protease assay (AID 1347159); conditions: Recombinant ZIKV NS2B-NS3 protease, Rhodamine110 substrate fluorescence; at 107 µM (top of the series); further: on the % scale 0 is the no-effect control and ±100 the full control effect; nearly all actives have a fitted effect of over 60% in size
Method in brief: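 Enzyme 25 nM in Tris-HCl pH 8.0 + 0.01% Tween 20; compounds up to 114 microM, 15 min RT dark; + Rhod110 substrate 1.5 microM; read t0 and 15 min; delta fluorescence → % inhibition → 4-parameter Hill fit.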

[23] = test system: Zika virus NS2B-NS3 protease (linked construct); assay: Primary screen NINDS Rhodamine qHTS for Zika virus inhibitors (AID 1347160); conditions: purified NS2B-NS3 protease, Rhodamine110 substrate fluorescence; activity change, negative = inhibition: at 57.1 µM (top of the series); further: nearly all actives have a fitted effect of over 55% in size
Method in brief: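 Enzyme (25 nM, linked NS2B-NS3) was preincubated 15 min with compound in 10 mM Tris-HCl pH 8.0, 0.01% Tween 20. Rhodamine110 substrate (1.5 microM) was then added and fluorescence read at start and after 15 min.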

[24] = Confirmatory qHTS to identify inhibitors of SARS-CoV-2 cell entry (AID 1645844; calls by dose curve; further: potency means the concentration at half of the fitted maximal effect; nearly all actives have a fitted effect of over 45% in size); conditions: SARS-CoV-2 pseudotyped particle cell entry, luciferase
Method in brief: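 Luminescence entry read-out after 48 h: spike-pseudotyped MLV particles (Wuhan-Hu-1, 19-aa C-terminal truncation) added to compound-pretreated (1 h) HEK293-ACE2 cells; Data were normalised to bald PP and spike PP wells.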

[25] = VSVG counterscreen qHTS to identify inhibitors of SARS-CoV-2 cell entry (AID 1645847; calls by dose curve; further: potency means the concentration at half of the fitted maximal effect; nearly all actives have a fitted effect of over 65% in size); conditions: VSV-G pseudotyped particle entry, luciferase
Method in brief: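 HEK293-ACE2 cells (Expi293F stably expressing human ACE2) were pretreated with compound for 1 h at 37 °C, then infected with MLV-based VSV-G pseudotyped particles for 48 h. Luciferase luminescence was normalized to VSV-G PP and bald PP wells.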

NC(=O)Nc1ccc([As](=O)(O)O)cc1
outcome [1]: inactive | outcome [2]: inactive | outcome [3]: inactive | activity change, negative = inhibition [4]: inactive: -5.09% | activity change, negative = inhibition [5]: inactive: -18.2% | activity change, negative = inhibition [6]: inactive: 10.3% | activity change, negative = inhibition [7]: inactive: 1.94% | activity change, negative = reduced viability [8]: inactive: 4.51% | activity change, negative = lower viability [9]: inactive: 0.596% | activity change, negative = inhibition [10]: inactive: -7.86% | activity change, negative = inhibition [11]: inactive: -3.61% | outcome [12]: inactive | outcome [13]: inactive | activity change [14]: inactive: 3.68% [at 4.29 µM] | activity change, negative = cytotoxicity [15]: inactive: 1.79%

CN(C(=O)Cc1ccc(Cl)c(Cl)c1)[C@@H]1CCCC[C@@H]1N1CCCC1
activity change, negative = inhibition [16]: inactive: -6.83% | activity change, negative = inhibition [17]: inactive: 4.15% | fluorescence change [18]: inactive: -4.21% | activity, negative = inhibition [19]: inactive: 0.048% | activity change, negative = inhibition [20]: inactive: -6.3% | activity change, negative = inhibition [4]: inactive: -2.51% | activity change, negative = inhibition [5]: inactive: 2.5% | activity change, negative = inhibition [6]: inactive: 3% | activity change, negative = inhibition [7]: inactive: 4.64% | activity change, negative = reduced viability [8]: inactive: -11.8% | activity change, negative = lower viability [9]: inactive: -4.82% | activity change, negative = inhibition [10]: inactive: 2.82% | activity change, negative = inhibition [21]: inactive: 1.38%

CN(C)C1(c2ccccc2)CCC2(CC1)OCCc1c2[nH]c2ccc(F)cc12 (stereo not drawn)
activity change, negative = inhibition [22]: inactive: 48.6% | outcome [23]: inactive | Potency [24]: active: 4.29 µM | activity change, negative = cytotoxicity [15]: inactive: -20.4% | Potency [25]: active: 3.83 µM
